# Measured values taken from US8002614B2, “Microbiocidal control in the processing of meat-producing four-legged animals” (priority 2005, dated 2011).
# Assay: Effect of biocide solutions on colour of raw beef on contact
# Conditions: ca. 25 g meat in ca. 30 g solution, 5 minutes, rinsed and patted dry
# [1] = approximately 100 ppm expressed as bromine
Structure (SMILES),Observations (meat colour vs deionized water control) [1],Observations (meat colour vs deionized water control) (2% solution)
"CC1(C)C(=O)N(Cl)C(=O)N1Br [BCDMH, N,N′-bromochloro-5,5-dimethylhydantoin]",Lighter than the control,–
"CC1(C)C(=O)N(Br)C(=O)N1Br [DBDMH, 1,3-dibromo-5,5-dimethylhydantoin]",More red than the control,–
CC(O)C(=O)O (stereo not drawn) [Lactic acid],–,Some browning occurred on sides of the
